We go through two molecules from patent US20220153815A1, “Compounds specific to coronavirus s protein and uses thereof” (ADAGIO THERAPEUTICS, published 2022).

For this test, the target named is SEC-purified SARS-CoV-2 RBD-SD1 (SARS-CoV-2, UniProt P0DTC2 319-591). The test is described as follows: SPR (Biacore X100), RBD-SD1 on NiNTA chip, Fab injected. On the technique in general: SPR reads the build-up and loss of mass on a sensor chip optically.

B1: ADI-58120 Fab (Fab, V domains shown)
VH: not shown
VL: not shown
As to B1, the binding result was “binds”.

B2: ADI-58126 Fab (Fab, V domains shown)
VH: not shown
VL: not shown
Consider B2, for which the binding result is on record as “binds”.
